Earlier results, collected in patent US9688856B2, “Biologically active silicic acid” (dated 2017).

Amino acid sequences for entries named in this document (tags omitted). A change or cut given only in a name is not applied to a line headed by its entry.
UniProt P04191: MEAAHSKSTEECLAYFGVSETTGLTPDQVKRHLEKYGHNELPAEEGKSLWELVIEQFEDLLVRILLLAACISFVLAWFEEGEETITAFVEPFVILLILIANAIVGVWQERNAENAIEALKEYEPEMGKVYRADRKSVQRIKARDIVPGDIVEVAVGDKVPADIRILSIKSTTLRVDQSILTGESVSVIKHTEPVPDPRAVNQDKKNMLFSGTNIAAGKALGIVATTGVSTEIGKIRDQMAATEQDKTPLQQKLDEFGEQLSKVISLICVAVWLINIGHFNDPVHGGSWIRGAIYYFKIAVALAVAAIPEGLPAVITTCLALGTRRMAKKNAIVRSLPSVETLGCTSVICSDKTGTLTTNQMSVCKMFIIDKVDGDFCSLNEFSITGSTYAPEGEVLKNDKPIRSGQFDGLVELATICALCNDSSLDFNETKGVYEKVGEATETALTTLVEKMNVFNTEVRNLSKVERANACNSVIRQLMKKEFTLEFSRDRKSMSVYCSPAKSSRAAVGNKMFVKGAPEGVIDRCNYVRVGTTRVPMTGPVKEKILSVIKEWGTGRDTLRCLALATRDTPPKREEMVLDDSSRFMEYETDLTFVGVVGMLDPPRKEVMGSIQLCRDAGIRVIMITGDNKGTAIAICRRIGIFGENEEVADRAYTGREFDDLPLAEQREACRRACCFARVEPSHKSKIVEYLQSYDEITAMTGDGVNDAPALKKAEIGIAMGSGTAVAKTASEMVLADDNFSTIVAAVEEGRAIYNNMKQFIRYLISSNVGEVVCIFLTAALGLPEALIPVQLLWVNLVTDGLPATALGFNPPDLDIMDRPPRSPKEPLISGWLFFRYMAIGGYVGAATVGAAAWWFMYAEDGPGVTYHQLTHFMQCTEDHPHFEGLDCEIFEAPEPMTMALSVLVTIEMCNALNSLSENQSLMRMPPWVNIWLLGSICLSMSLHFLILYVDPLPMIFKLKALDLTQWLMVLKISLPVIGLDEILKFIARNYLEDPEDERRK

Molecular target: Ca-ATPase pump of the endoplasmic reticulum (SERCA) (Oryctolagus cuniculus, UniProt P04191)
Settings: prior art; cited from earlier work

CC[C@H](C)[C@H](NC(=O)CN)C(=O)NCC(=O)N[C@@H](C)C(=O)N[C@H](C(=O)N[C@@H](CC(C)C)C(=O)N[C@@H](CCCCN)C(=O)N[C@H](C(=O)N[C@@H](CC(C)C)C(=O)N[C@H](C(=O)N[C@H](C(=O)NCC(=O)N[C@@H](CC(C)C)C(=O)N1CCC[C@H]1C(=O)N[C@@H](C)C(=O)N[C@@H](CC(C)C)C(=O)N[C@H](C(=O)N[C@@H](CO)C(=O)N[C@@H](Cc1c[nH]c2ccccc12)C(=O)N[C@H](C(=O)N[C@@H](CCCCN)C(=O)N[C@@H](CCCNC(=N)N)C(=O)N[C@@H](CCCCN)C(=O)N[C@@H](CCCNC(=N)N)C(=O)N[C@@H](CCC(N)=O)C(=O)N[C@@H](CCC(N)=O)C(N)=O)[C@@H](C)CC)[C@@H](C)CC)[C@@H](C)O)[C@@H](C)O)C(C)C)C(C)C
SERCA inhibition potency range of previous art inhibitors: micromolar (μM) range
